Values from PubChem BioAssay AID1259414 (Drosophila RNAi Screening Center, 2018)
Aim: 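Genome-wide screen for host control of endosymbiont load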 (primary screen). Cells: Drosophila JW18 cells infected with Wolbachia. Reagent: long dsRNA against Drosophila genes, 0.25 µg dsRNA per well of a 384-well plate. Time to read-out: 5 days. Treatment: cells persistently infected with Wolbachia before knock-down; no added drug. Read-out: 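Imaged fluorescence in situ signal for Wolbachia 23S rRNA per DAPI-counted host cell, given as a robust z-score within each plate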. Direction: Wolbachia per cell robust z: higher = more Wolbachia per host cell than the plate typical. Active means: 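Hit when robust z is 1.5 or more, or -1.5 or less, in at least two of three replicates; excludes dsRNAs with several or no targets, genes not expressed in JW18 and well A1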.
The deposit covers about 24,000 reagents; shown is a random part of those that have a named target and a result. In the full data, about 1,210 (5%) got an active call. 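Inactive calls also include excluded dsRNAs with several or no targets, genes unexpressed in JW18, and well A1, regardless of score.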 Unmarked entries are inactive. A plus sign joins genes that one reagent is predicted to hit. No sequences are given here.

How did the screen score bumpel [DRSC16100]?
Wolbachia per cell robust z, rep 1: 0.159; Wolbachia per cell robust z, rep 2: 0.618; Wolbachia per cell robust z, rep 3: -0.721

With Brms1 (BRMS1 transcriptional repressor) [DRSC19896], how do the results read?
Wolbachia per cell robust z, rep 1: 0.299; Wolbachia per cell robust z, rep 2: 0.529; Wolbachia per cell robust z, rep 3: 0.966

What is on record for CG43668 + CG43667 + CG43666 [DRSC04233]?
Wolbachia per cell robust z, rep 1: -4.58; Wolbachia per cell robust z, rep 2: 1.32; Wolbachia per cell robust z, rep 3: 0.836

For CG8736 [DRSC07255], how do the results read?
Wolbachia per cell robust z, rep 1: 0.081; Wolbachia per cell robust z, rep 2: 0.787; Wolbachia per cell robust z, rep 3: 1.17

What is on record for CG8736 [DRSC27360]?
Wolbachia per cell robust z, rep 1: -3.93; Wolbachia per cell robust z, rep 2: 0.956; Wolbachia per cell robust z, rep 3: 0.815

How did the screen score rk (rickets) [DRSC03602]?
Wolbachia per cell robust z, rep 1: -0.47; Wolbachia per cell robust z, rep 2: 0.122; Wolbachia per cell robust z, rep 3: -0.398

For CG15422 [DRSC00436], what was measured?
Wolbachia per cell robust z, rep 1: 1.22; Wolbachia per cell robust z, rep 2: -5.26; Wolbachia per cell robust z, rep 3: 0.596

For CG15422 [DRSC25238], what was measured?
Wolbachia per cell robust z, rep 1: 0.0598; Wolbachia per cell robust z, rep 2: 0.79; Wolbachia per cell robust z, rep 3: 0.651

Copied from the list.
Under “Wolbachia per cell robust z, rep 1”, CG8736 [DRSC07255] shows 0.081
Under “Wolbachia per cell robust z, rep 3”, CG8736 [DRSC27360] is entered as 0.815

Continued.
For CG12241 [DRSC14481], what does the deposit list?
Wolbachia per cell robust z, rep 1: 0.933; Wolbachia per cell robust z, rep 2: 0.476; Wolbachia per cell robust z, rep 3: -0.795

With CG12241 [DRSC26642], what was measured?
Wolbachia per cell robust z, rep 1: -1.27; Wolbachia per cell robust z, rep 2: 0.663; Wolbachia per cell robust z, rep 3: -0.251

What is on record for CG13042 [DRSC09923]?
Wolbachia per cell robust z, rep 1: -2.24; Wolbachia per cell robust z, rep 2: -1.69; Wolbachia per cell robust z, rep 3: 0.777

With CG13042 [DRSC28618], what was measured?
Wolbachia per cell robust z, rep 1: 0.392; Wolbachia per cell robust z, rep 2: 0.697; Wolbachia per cell robust z, rep 3: -0.538

Which result is listed for Det (Deterin) [DRSC14489]?
Wolbachia per cell robust z, rep 1: 0.414 (active); Wolbachia per cell robust z, rep 2: 1.61; Wolbachia per cell robust z, rep 3: 1.6

What is on record for Ntan1 (N-terminal amidohydrolase 1) [DRSC07546]?
Wolbachia per cell robust z, rep 1: 0.499; Wolbachia per cell robust z, rep 2: 0.0677; Wolbachia per cell robust z, rep 3: -0.952

How did the screen score CG3529 [DRSC10369]?
Wolbachia per cell robust z, rep 1: 0.287; Wolbachia per cell robust z, rep 2: 0.673; Wolbachia per cell robust z, rep 3: 0.551

Which result is listed for CG3529 [DRSC25300]?
Wolbachia per cell robust z, rep 1: 1.18; Wolbachia per cell robust z, rep 2: 1.27; Wolbachia per cell robust z, rep 3: 0.325

For Slbp (Stem-loop binding protein) [DRSC16863], how do the results read?
Wolbachia per cell robust z, rep 1: 0.453; Wolbachia per cell robust z, rep 2: -3.51; Wolbachia per cell robust z, rep 3: 0.45

What is on record for CG5756 [DRSC06950]?
Wolbachia per cell robust z, rep 1: 0.000411; Wolbachia per cell robust z, rep 2: -0.156; Wolbachia per cell robust z, rep 3: -0.22

With CG5756 [DRSC28245], what was measured?
Wolbachia per cell robust z, rep 1: -0.0278; Wolbachia per cell robust z, rep 2: -0.164; Wolbachia per cell robust z, rep 3: -0.232

What is on record for CG13068 [DRSC09951]?
Wolbachia per cell robust z, rep 1: -0.184; Wolbachia per cell robust z, rep 2: 0.495; Wolbachia per cell robust z, rep 3: -1.13

What did the screen give for CG13068 [DRSC27150]?
Wolbachia per cell robust z, rep 1: 1.09; Wolbachia per cell robust z, rep 2: -0.0992; Wolbachia per cell robust z, rep 3: 1

For GluRIIC (Glutamate receptor IIC) [DRSC00642], what was measured?
Wolbachia per cell robust z, rep 1: -0.843; Wolbachia per cell robust z, rep 2: 0.0416; Wolbachia per cell robust z, rep 3: 0.0339

For CG30376 [DRSC05086], what was measured?
Wolbachia per cell robust z, rep 1: -0.591; Wolbachia per cell robust z, rep 2: -0.402; Wolbachia per cell robust z, rep 3: 0.506

Which result is listed for E(spl)m2-BFM (Enhancer of split m2, Bearded family member) [DRSC23082]?
Wolbachia per cell robust z, rep 1: -1.76 (active); Wolbachia per cell robust z, rep 2: -0.89; Wolbachia per cell robust z, rep 3: -1.96

What did the screen give for E(spl)m2-BFM (Enhancer of split m2, Bearded family member) [DRSC40725]?
Wolbachia per cell robust z, rep 1: 0.888; Wolbachia per cell robust z, rep 2: 0.775; Wolbachia per cell robust z, rep 3: 0.365
